PubChem BioAssay AID624099 | ICCB-Longwood | 2012
This is an unselected part of about 21,000 reagents. Of all reagents, 497 (2.4%) are marked active. 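Higher z means weaker E2 silencing; only reporter increases were scored, and knock-downs that hurt cell survival may mask genuine repressor factors.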

Aim: 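Host factors E2 relies on to silence an HPV18 LCR reporter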 (primary screen)
Cells: human C33A cervical carcinoma cells (HPV-negative) stably expressing BPV1 E2 and an HPV18 LCR luciferase reporter
Knock-down reagent: siRNA pool against human genes, 40 nM
Time to read-out: 72 h
Measurement: 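Per-well luciferase luminescence, z-scored on each plate against the plate mean and SD with control wells left out, then averaged across three replicate plates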
Scale: mean z-score and z-score: higher = stronger reporter signal, weaker E2 silencing
Call rule: 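Mean z ≥ 2 together with z ≥ 2 in two or more of the three replicates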

After knock-down of SPTBN4 (GeneID 57731), the screen gave mean z-score -0.37; z-score, replicate A = -0.47; z-score, replicate B = -0.35; z-score, replicate C = -0.29; inactive.
After knock-down of PLEC (GeneID 5339), the screen gave mean z-score 0.71; z-score, replicate A = 0.48; z-score, replicate B = 0.83; z-score, replicate C = 0.83; inactive.
Depletion of POLR2A (GeneID 5430) came out at: mean z-score -4.25; z-score, replicate A = -4.08; z-score, replicate B = -4.34; z-score, replicate C = -4.33; inactive.
Depletion of GGTLC2 (GeneID 91227) resulted in: mean z-score 1.95; z-score, replicate A = 2.27; z-score, replicate B = 1.88; z-score, replicate C = 1.69; inactive.
Silencing of SLC25A46 (GeneID 91137) came out at: mean z-score 2.05; z-score, replicate A = 1.73; z-score, replicate B = 2.09; z-score, replicate C = 2.35; active.
Depletion of TM2D2 (GeneID 83877) gave: mean z-score 0.96; z-score, replicate A = 1.17; z-score, replicate B = 0.72; z-score, replicate C = 1; inactive.
ACVR2A (GeneID 92) gave mean z-score -0.53; z-score, replicate A = -0.79; z-score, replicate B = -0.61; z-score, replicate C = -0.2; inactive.
Knock-down of OASL (GeneID 8638) gave: mean z-score -0.38; z-score, replicate A = -0.51; z-score, replicate B = -0.41; z-score, replicate C = -0.22; inactive.
For POLR1B (GeneID 84172), the entry reads mean z-score 0.48; z-score, replicate A = 0.51; z-score, replicate B = 0.12; z-score, replicate C = 0.81; inactive.
Silencing of KIAA1191 (GeneID 57179) came out at: mean z-score -0.5; z-score, replicate A = -0.78; z-score, replicate B = -0.33; z-score, replicate C = -0.4; inactive.
With knock-down of TSEN34 (GeneID 79042) the results were mean z-score 1.41; z-score, replicate A = 1.25; z-score, replicate B = 2.45; z-score, replicate C = 0.53; inactive.
ANKRD20A1 (GeneID 84210) gave mean z-score -1.71; z-score, replicate A = -1.52; z-score, replicate B = -1.85; z-score, replicate C = -1.75; inactive.
For ZNF274 (GeneID 10782), the values are mean z-score -0.91; z-score, replicate A = -1.13; z-score, replicate B = -0.54; z-score, replicate C = -1.06; inactive.
CGNL1 (GeneID 84952) showed mean z-score 1.72; z-score, replicate A = 1.76; z-score, replicate B = 1.55; z-score, replicate C = 1.84; inactive.
Silencing of NCKAP1L (GeneID 3071) came out at: mean z-score 3.29; z-score, replicate A = 3.22; z-score, replicate B = 3.21; z-score, replicate C = 3.44; active.
SOCS5 (GeneID 9655) scored mean z-score -0.29; z-score, replicate A = 0.08; z-score, replicate B = -0.7; z-score, replicate C = -0.27; inactive.
After knock-down of SBNO1 (GeneID 55206), the record shows mean z-score 1.92; z-score, replicate A = 1.84; z-score, replicate B = 1.9; z-score, replicate C = 2.01; inactive.
With knock-down of ABL2 (GeneID 27) the results were mean z-score -0.47; z-score, replicate A = -0.5; z-score, replicate B = -0.46; z-score, replicate C = -0.45; inactive.
IFNA6 (GeneID 3443) scored mean z-score -0.74; z-score, replicate A = -0.61; z-score, replicate B = -0.78; z-score, replicate C = -0.82; inactive.
For RNF180 (GeneID 285671) the deposit lists mean z-score -0.68; z-score, replicate A = -0.85; z-score, replicate B = -0.44; z-score, replicate C = -0.73; inactive.
SLC25A45 (GeneID 283130) gave mean z-score -0.29; z-score, replicate A = -0.13; z-score, replicate B = -0.25; z-score, replicate C = -0.48; inactive.

Sorted by “z-score, replicate A” (descending): 2 of the entries above
NCKAP1L (GeneID 3071) → mean z-score: 3.29; z-score, replicate A: 3.22; z-score, replicate B: 3.21; z-score, replicate C: 3.44; Outcome: active
SOCS5 (GeneID 9655) → mean z-score: -0.29; z-score, replicate A: 0.08; z-score, replicate B: -0.7; z-score, replicate C: -0.27; Outcome: inactive
